Anti-infective test results gathered from many reports (values: NIAID ChemDB through PubChem).

All rows: whole-cell or culture tests; agent: HIV-1; measure: EC50

ECn: concentration that inhibits the pathogen or its effect by n%.

| structure | cell line | mutations | strain or isolate | result |
|---|---|---|---|---|
| COc1cc2ccnc3c2c(c1OCCCCCCOc1c(OC)cc2ccnc4c2c1N(C)C=C4)N(C)C=C3 | PBMC |  |  | 0.54 µM |
| Cc1cc(/C=C/C#N)cc(C)c1Nc1nc(Nc2ccc(C#N)cc2)ncc1C(O)c1nc2ccccc2s1 | MT-4 |  | PSI (IIIB) | 1120 µM |
| O=C1c2c(O)c(O)cc(S(=O)(=O)NCCCCCCNS(=O)(=O)c3cc(O)c(O)c4c3CN(Cc3ccc(F)c(Cl)c3)C4=O)c2CN1Cc1ccc(F)c(Cl)c1 |  |  |  | 5.5 µM |
| CCOCn1c(Cc2ccc3ccccc3c2)c(CC)c(=O)[nH]c1=O | MT-4 |  | LAV | 3.194 µM |
| CCCN1C=Cc2nccc3cc(OC)c(OC)c1c23 | PBMC |  |  | 4 µM |
| COC(=O)Cc1cn([C@H]2C=C[C@@H](COP(=O)(N[C@@H](C)C(=O)OC)Oc3ccccc3)O2)c(=O)[nH]c1=O | MT-4 |  | IIIB | 100 µM |
| Cc1c(Cc2ccc3ccccc3c2)n(COCc2ccccc2)c(=O)[nH]c1=O | CEM |  | LAV | 3.444 µM |
| CC(C(=O)O)C(C)C(=O)N[C@@H](Cc1ccccc1)[C@H](O)C(=O)N1CSC(C)(C)[C@H]1C(=O)NC(C)(C)C | MT-4 |  |  | 225 µM |
| COc1cccc2c1nc(-c1ccccc1F)n2CCC#N | MT-4 |  | IIIB | >66 µg/mL |
| COc1cc(/C=C/C(=O)CC(=O)/C=C/c2ccc(O)c(OC)c2)ccc1O | PBMC |  | IIIB | 5 µM |
| CCOCn1c(Cc2ccc3ccccc3c2)c(C)c(=O)[nH]c1=O | MT-4 |  | LAV | 3.27 µM |
| O=C(Cc1cn([C@H]2C=C[C@@H](CO)O2)c(=O)[nH]c1=O)NCCCCCCCCNC(=O)c1c2ccccc2nc2ccccc12 | MT-4 |  | IIIB | >10 µM |
| CCC(O)c1cnc(Nc2ccc(C#N)cc2)nc1Nc1c(C)cc(/C=C/C#N)cc1C | MT-4 |  | K103N + Y181C | 0.09333 µM |
| O=c1[nH]c(=O)n([C@H]2C=C[C@@H](CO)O2)cc1CCO | MT-4 |  | IIIB | >1 µM |
| COC(=O)Cn1c(-c2ccccc2F)nc2c(OC)cccc21 | MT-4 |  | IIIB | 2.29 µg/mL |
| CC1(c2nc3cc(Cl)c(Cl)cc3[nH]2)CCC(C(=O)O)C(C)(C)O1 | CEM + CEM-SS |  | RF | >20 µM |
| Cc1c(Cc2cccc3ccccc23)n(COCc2ccccc2)c(=O)[nH]c1=O | CEM |  | LAV | 0.075 µM |
| O=C1c2c(O)c(O)cc(S(=O)(=O)NCCCNS(=O)(=O)c3cc(O)c(O)c4c3CN(Cc3ccc(F)c(Cl)c3)C4=O)c2CN1Cc1ccc(F)c(Cl)c1 |  |  |  | 5.7 µM |
| COC(=O)c1ccc(C(O)c2ccccc2NC(=O)c2ccccc2OC)cc1 | MT-4 |  | LAI | >100 µM |
| Nc1nc(F)nc2c1ncn2[C@@H]1O[C@H](CO)C[C@@H]1F | MT-2 |  | IIIB | 9.4 µg/mL |
| COc1cccc2c1nc(-c1ccccc1F)n2Cc1ccc(C(F)(F)F)cc1 | MT-4 |  | IIIB | >5 µg/mL |
| CC(C)c1c(Cc2cccc3ccccc23)n(COCCO)c(=O)[nH]c1=O | MT-4 |  | LAV | 0.076 µM |
| O=c1[nH]c(=O)n([C@@H]2C=C[C@H](CO)O2)cc1CCO | MT-4 |  | IIIB | >100 µM |
| Cc1cc(/C=C/C#N)cc(C)c1Nc1nc(Nc2ccc(C#N)cc2)ncc1C(O)c1cncs1 | MT-4 |  | PSI (IIIB) | 316 µM |
| COc1ccc(C(O)c2ccccc2C(=O)Nc2ccccc2OC)cc1 | MT-4 |  | LAI | >100 µM |
| COc1cccc2c1nc(-c1ccccc1F)n2Cc1cccc(C(F)(F)F)c1 | MT-4 |  | IIIB | 0.082 µg/mL |
| CCCCCCCCCCCCCCCC[n+]1ccc2cc(OC)c(OC)c3c2c1C=CN3 | PBMC |  |  | <1 µM |
| CCOCn1c(Cc2cccc3ccccc23)c(C)c(=O)[nH]c1=O | MT-4 |  | LAV | 0.225 µM |
| N#Cc1cc(Cl)cc(Oc2c(Br)ccc(CC(=O)Nc3ccc(S(N)(=O)=O)cc3Cl)c2F)c1 | MT-4 | L100I V106I Y181C Y188L |  | >0.4 µM |
| NCCCc1cn([C@H]2C=C[C@@H](CO)O2)c(=O)[nH]c1=O | MT-4 |  | IIIB | >1000 µM |
| COc1ccccc1NC(=O)c1ccccc1C(O)c1ccc(C#N)cc1 | MT-4 |  | LAI | 22.8 µM |
| O=c1[nH]cnc2c1ncn2C1C[C@H](CO)[C@@H](CO)C1 | CEM |  |  | >100 µg/mL |
| Clc1cc2nc(C3CCCO3)[nH]c2cc1Cl | CEM + CEM-SS |  | RF | >0.063 µM |
| OC[C@H]1CC(n2cnc3c(NC4CC4)ncnc32)C[C@@H]1CO | CEM |  |  | >100 µg/mL |
| CCOCn1c(Cc2cccc3ccccc23)c(C(C)C)c(=O)[nH]c1=O | MT-4 |  | LAV | 0.017 µM |
| Cc1cc(/C=C/C#N)cc(C)c1Nc1nc(Nc2ccc(C#N)cc2)ncc1C(O)OCCO | MT-4 |  | IIIB | 0.00302 µM |
| CC1(c2nc3ccccc3[nH]2)CCC(CO)C(C)(C)O1 | CEM + CEM-SS |  | RF | >0.063 µM |
| COC(=O)Cc1cn([C@@H]2C=C[C@H](CO)O2)c(=O)[nH]c1=O | MT-4 |  | IIIB | >100 µM |
| Cc1cc(/C=C/C#N)cc(C)c1Nc1nc(Nc2ccc(C#N)cc2)ncc1C(O)c1nccn1C | MT-4 |  | PSI (IIIB) | 166 µM |
| COc1ccccc1NC(=O)c1ccccc1Oc1ccc(OCO)c(OCO)c1 | MT-4 |  | LAI | 102.5 µM |
| O=c1[nH]c(=O)n([C@@H]2C[C@H](CO)C[C@H]2CO)cc1I | CEM |  |  | >100 µg/mL |
| COc1cccc2c1nc(-c1ccccc1F)n2Cc1ccco1 | MT-4 |  | IIIB | 0.015 µg/mL |
| COC(=O)[C@H](C)NP(=O)(OC[C@@H]1C=C[C@H](n2cc(CC(=O)NCCCCCCNC(=O)C(F)(F)F)c(=O)[nH]c2=O)O1)Oc1ccccc1 | MT-4 |  | IIIB | 10 µM |

Repeating the first 5 entries:

| structure | cell line | mutations | strain or isolate | result |
|---|---|---|---|---|
| COc1cc2ccnc3c2c(c1OCCCCCCOc1c(OC)cc2ccnc4c2c1N(C)C=C4)N(C)C=C3 | PBMC |  |  | 0.54 µM |
| Cc1cc(/C=C/C#N)cc(C)c1Nc1nc(Nc2ccc(C#N)cc2)ncc1C(O)c1nc2ccccc2s1 | MT-4 |  | PSI (IIIB) | 1120 µM |
| O=C1c2c(O)c(O)cc(S(=O)(=O)NCCCCCCNS(=O)(=O)c3cc(O)c(O)c4c3CN(Cc3ccc(F)c(Cl)c3)C4=O)c2CN1Cc1ccc(F)c(Cl)c1 |  |  |  | 5.5 µM |
| CCOCn1c(Cc2ccc3ccccc3c2)c(CC)c(=O)[nH]c1=O | MT-4 |  | LAV | 3.194 µM |
| CCCN1C=Cc2nccc3cc(OC)c(OC)c1c23 | PBMC |  |  | 4 µM |

Blank or dashed fields: not listed here. Lines come from different laboratories, so protocols vary.